Measured values from several laboratories, pooled; numbers as filed in NIAID ChemDB.

Common to all: host cell toxicity; cells: MT-2; read-out: CC50

CCn is the concentration with n% toxicity to the cells. An empty or dashed field is not shown. Neighbouring rows are from separate reports.

SMILES | method | value
Cc1ccc2c(=O)n(C)nc(Cc3ccc(Cl)c(Cl)c3)c2c1 | propidium iodide | 93.5 µM
COc1ccnc(Nc2ccc(Cl)c(Oc3cc(Cl)cc(Cl)c3)c2)n1 |  | 4.3 µM
Cn1nc(NS(C)(=O)=O)c2c(Cl)ccc(-n3c(C(Cc4cc(F)cc(F)c4)NC(=O)Cn4nc(C(F)F)c5c4C(F)(F)C4CC54)nc4nc(OCCC(C)(F)F)ccc4c3=O)c21 | XTT | >10 µM
Cc1nc2cc(-c3ccc4c(=O)n(-c5ccc(Cl)c6c(NS(C)(=O)=O)nn(C)c56)c([C@H](Cc5cc(F)cc(F)c5)NC(=O)Cn5nc(C(F)F)c6c5C(F)(F)[C@@H]5C[C@H]65)nc4c3)ccc2s1 | XTT | >0.5 µM
CN(C)c1nc(N)nc2c1ncn2[C@H]1C=C[C@@H](CO)C1 |  | >100 µM
O=c1[nH]nc(Cc2ccc(Cl)c(Cl)c2)c2ccccc12 | propidium iodide | >164 µM
O=C(C(=O)N1CCN(C(=O)c2ccccc2)CC1)c1c[nH]c2cccc([N+](=O)[O-])c12 | XTT | >10 µM
CC(=O)COc1cc2c(c(O)c1Br)C(=O)C1C(O)=CC(C)=CC1C2=O | MTT | 30 µM
C[C@H]1[C@H](O)[C@@H](C)/C=C/C=C/C=C/C=C/C=C/C=C/C=C/[C@H](O[C@@H]2O[C@H](C)[C@@H](O)[C@H](N)[C@@H]2O)C[C@@H]2O[C@](O)(C[C@@H](O)C[C@@H](O)CC[C@H](O)[C@@H](O)C[C@@H](O)CC(=O)O[C@H]1C)C[C@H](O)[C@H]2C(=O)O | MTT | >10 µM
CC[C@H](C)[C@H](NC(=O)c1ccccc1SSc1ccccc1C(=O)N[C@H](C(=O)O)[C@@H](C)CC)C(=O)O |  | 123 µM
O=C(/C=C/c1cc(O)c(O)c(O)c1)NCC(NC(=O)/C=C/c1cc(O)c(O)c(O)c1)C(=O)O | neutral red | >30 µM
Cc1ccc(S(=O)(=O)NC(=O)Cc2c(C)nn(CC(=O)N[C@@H](Cc3ccccc3)C(=O)N(C)c3ccc4c(c3)OCO4)c2C(C)C)cc1 | ATP | >20 µM
Cc1ccc(C[C@@H](C)[C@@H](C)Cc2ccc(C)c(C)c2)cc1C | luminescence | 68.5 µM
O=C(Nc1cc(NC(=O)c2ccccc2)cc(-c2nc3ccccc3c(=O)o2)c1)c1ccccc1 | XTT | >100 µM
COc1ccc(Cc2n[nH]c(=O)c3ccccc23)cc1 | propidium iodide | >188 µM
CNc1nc(N)nc2c1ncn2[C@H]1C=C[C@@H](CO)C1 |  | >100 µM
N#Cc1cc(/C=C/Cl)cc(Oc2cc(Nc3nccc(C4CC4)n3)ccc2C#N)c1 |  | 1.9 µM
Cc1nc2cc(N(C)C(=O)[C@H](Cc3ccccc3)NC(=O)Cn3nc(C4CC4)c(CCO)c3C)ccc2s1 | ATP | >20 µM
N#Cc1ccc2c(Oc3ccc(F)cc3OCCn3ccc(=O)[nH]c3=O)cc(F)cc2c1 | MTT | >100 µM
CC#C[C@@]1(CO)C=C[C@H](n2cc(C)c(=O)[nH]c2=O)O1 | cell count | >100 µM
CCCCCCCCCCCCCCCCCCOCCOP(=O)(O)CO[C@H](CO)Cn1cnc2c(=O)[nH]c(N)nc21 | flow cytometry | 0.24 µM
Cc1ccc2c(=O)[nH]nc(Cc3ccc(Cl)c(Cl)c3)c2c1 | propidium iodide | 64.7 µM
N#C/C=C/c1cccc(Oc2cc(Nc3nccc(C4CC4)n3)ccc2C#N)c1 |  | 1.1 µM
Nc1nc2c(ncn2[C@H]2C=C[C@@H](CO)C2)c(=O)[nH]1 |  | 100 µg/mL
O=C(CSc1nc2ccc(NC(=O)c3ccccc3C(=O)O)cc2s1)NCc1ccccc1 | XTT | >100 µM
COc1nc(Nc2ccc(C#N)c(OCC=C(C)C)c2)nc(OCCCCOc2nc(Nc3ccc(C#N)c(OCC=C(C)C)c3)nc(OC)n2)n1 | MTT | 100 µM
CNC(=O)c1c(O)c2ncc(Cc3ccc(F)cc3)c3c2n(c1=O)C[C@](C)(c1nnc(C)o1)O3 |  | 5.3 µM
COc1cc(C)c(/C=C/C2NCCc3cc(OCc4ccccc4)c(OC)cc32)cc1OC | fluorescence | 2.2 µM
O=C(C(=O)N1CCN(C(=O)c2ccccc2)CC1)c1c[nH]c2cccc(F)c12 | XTT | >10 µM
O=C(/C=C/c1ccc(O)c(O)c1)NCCC(NC(=O)/C=C/c1ccc(O)c(O)c1)C(=O)O | neutral red | >39 µM
CSc1ccc(Cc2nn(C)c(=O)c3ccc(C)cc23)cc1 | propidium iodide | 99.5 µM
Cc1c(CCO)c(C(F)(F)F)nn1CC(=O)N[C@@H](Cc1ccccc1)C(=O)N(C)c1ccc2c(c1)OCO2 | ATP | >20 µM
O=C(O)C(O)c1ccccc1 |  | >50 µg/mL
Cc1nc(C(CN)NC(=O)C(=O)Nc2ccc3c(c2)OCO3)sc1CO | MTS | ≥650 µM
COC(=O)[C@H](CCCCNC(=O)/C=C/c1cc(OC)c(OC)c(OC)c1)NC(=O)/C=C/c1cc(OC)c(OC)c(OC)c1 | neutral red | >104 µM
CCCCCCCCCCCCCCCCCCOCCOP(=O)(O)CO[C@H](CO)Cn1cnc2c(N)nc(N)nc21 | flow cytometry | 1.9 µM
CCOc1ccccc1N(CC(=O)Nc1ccc(S(=O)(=O)Nc2cccc(C(F)(F)F)c2)cc1)S(C)(=O)=O | XTT | 14.46 µM
O=C(C(=O)N1CCN(C(=O)c2ccccc2)CC1)c1c[nH]c2ccc(Cl)cc12 | XTT | >10 µM
COC(=O)C(CNC(=O)/C=C/c1ccc(O)c(O)c1)NC(=O)/C=C/c1ccc(O)c(O)c1 | neutral red | >49 µM
CC(=O)Oc1cc2[nH]cc(C(=O)C(=O)N3CCN(C(=O)c4ccccc4)CC3)c2cc1OC(C)=O | XTT | >10 µM
CCCOc1nc(N)nc2c1ncn2[C@@H]1C=C[C@H](CO)C1 |  | 95.9 µM
Cc1cn([C@H]2C=C[C@@H](CO)O2)c(=O)[nH]c1=O |  | 100 µM
CCCCCCCCCCCCCCCCCCOCCOP(=O)(O)CO[C@H](CO)Cn1ccc(N)nc1=O | flow cytometry | 0.02 µM
C=CCn1nc(Cc2ccc(SC)cc2)c2ccccc2c1=O | propidium iodide | 70.9 µM
NC(N)=NCCC[C@H](N)C(=O)NC[C@@H]1OC(O[C@H]2[C@@H](O)[C@H](O[C@@H]3[C@@H](O)[C@H](NC(=O)[C@@H](N)CCCN=C(N)N)C[C@H](NC(=O)[C@@H](N)CCCN=C(N)N)[C@H]3O[C@H]3O[C@H](CNC(=O)[C@@H](N)CCCN=C(N)N)[C@@H](O)[C@H](O)[C@H]3NC(=O)[C@@H](N)CCCN=C(N)N)O[C@@H]2CO)[C@H](NC(=O)[C@@H](N)CCCN=C(N)N)[C@@H](O)[C@@H]1O | MTT | 275 µM
CCCCCCCC/C=C\CCCCCCCOCCCOP(=O)(O)CO[C@H](CO)Cn1cnc2c(N)ncnc21 | propidium iodide | 7 µM
COc1ccnc(Nc2ccc(C#N)c(Oc3cc(Cl)cc(Cl)c3)c2)n1 |  | 0.27 µM
COC(=O)[C@H](CCCCNC(=O)/C=C/c1ccc(O)c(O)c1)NC(=O)/C=C/c1ccc(O)c(O)c1 | neutral red | >15 µM
CCCCCCCCCCCCCCCCCCOCCOP(=O)(O)CO[C@H](CO)Cn1cnc2c(N)ncnc21 | propidium iodide | 0.03 µM
CCNc1nc(N)nc2c1ncn2[C@H]1C=C[C@@H](CO)C1 |  | >100 µM
CC1=CC2C(=O)c3cc(O)cc(O)c3C(=O)C2C(O)=C1 | MTT | 70 µM
C#C[C@@]1(CO)C=C[C@H](n2cc(C)c(=O)[nH]c2=O)O1 |  | >100 µM
CCCNc1nc(N)nc2c1ncn2[C@H]1C=C[C@@H](CO)C1 |  | >100 µM
C/C(CC(=O)Nc1ccc(C(N)=O)cc1)=N\NC(=O)COc1ccc2ccccc2c1 | XTT | >100 µM
N#C/C=C/c1cc(F)cc(Oc2cc(Nc3nccc(C4CC4)n3)ccc2C#N)c1 |  | 0.26 µM

A second listing of 4 rows from above:

| SMILES | method | value |
|---|---|---|
| CC#C[C@@]1(CO)C=C[C@H](n2cc(C)c(=O)[nH]c2=O)O1 | cell count | >100 µM |
| Cc1ccc(C[C@@H](C)[C@@H](C)Cc2ccc(C)c(C)c2)cc1C | luminescence | 68.5 µM |
| C[C@H]1[C@H](O)[C@@H](C)/C=C/C=C/C=C/C=C/C=C/C=C/C=C/[C@H](O[C@@H]2O[C@H](C)[C@@H](O)[C@H](N)[C@@H]2O)C[C@@H]2O[C@](O)(C[C@@H](O)C[C@@H](O)CC[C@H](O)[C@@H](O)C[C@@H](O)CC(=O)O[C@H]1C)C[C@H](O)[C@H]2C(=O)O | MTT | >10 µM |
| CC1=CC2C(=O)c3cc(O)cc(O)c3C(=O)C2C(O)=C1 | MTT | 70 µM |